Data: patent publication US7491794B2, “Macrocyclic compounds as inhibitors of viral replication” (Intermune, Inc., priority 2003, dated 2009)

By UniProt entry, the sequences of proteins in these tests, tags left out. Residues count along the entry.
UniProt P27958, 1027-1657 limits assumed: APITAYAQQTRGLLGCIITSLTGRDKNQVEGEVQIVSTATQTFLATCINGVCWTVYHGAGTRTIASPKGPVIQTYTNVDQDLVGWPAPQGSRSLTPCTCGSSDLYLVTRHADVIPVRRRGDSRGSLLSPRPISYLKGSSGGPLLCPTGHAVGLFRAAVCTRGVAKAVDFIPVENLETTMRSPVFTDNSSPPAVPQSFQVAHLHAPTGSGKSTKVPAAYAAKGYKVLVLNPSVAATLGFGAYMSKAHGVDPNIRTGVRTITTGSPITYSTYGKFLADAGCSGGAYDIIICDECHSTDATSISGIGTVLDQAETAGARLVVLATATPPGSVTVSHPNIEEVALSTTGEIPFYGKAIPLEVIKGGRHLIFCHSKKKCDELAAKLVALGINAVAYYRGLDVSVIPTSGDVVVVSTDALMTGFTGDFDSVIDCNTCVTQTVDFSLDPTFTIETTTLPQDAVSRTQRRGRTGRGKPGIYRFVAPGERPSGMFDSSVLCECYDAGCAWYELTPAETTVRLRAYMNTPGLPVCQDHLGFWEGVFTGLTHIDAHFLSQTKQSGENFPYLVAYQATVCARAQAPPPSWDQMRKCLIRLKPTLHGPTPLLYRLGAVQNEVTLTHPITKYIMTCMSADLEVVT

Assays:
NS3-NS4A protease = NS3-NS4A protease (Hepatitis C virus genotype 1a, UniProt P27958); assay: NS3-NS4A protease assay (NS3 inhibition assay, RETS1 substrate), Section B; assay type: biochemical; settings: read-out: NS3-NS4A IC50
[1] = test system: HCV sub-genomic replicon, GS4.3; assay: Quantitation by ELISA of NPTII in the HCV sub-genomic replicon, GS4.3, Section B; assay type: cell-based; settings: read-out: Replicon EC50; GS4.3 cells, 72 h incubation
Procedure: Quantitation by ELISA of the Selectable Marker Protein, Neomycin Phosphotransferase II (NPTII) in the HCV Sub-Genomic Replicon, GS4.3
The HCV sub-genomic replicon (1377/NS3-3′, accession No. AJ242652), stably maintained in HuH-7 hepatoma cells, was created by Lohmann et al. Science 285: 110-113 (1999). The replicon-containing cell culture, designated GS4.3, was obtained from Dr. Christoph Seeger of the Institute for Cancer Research, Fox Chase Cancer Center, Philadelphia, Pa. […]
24 hours prior to the assay, GS4.3 cells were collected, counted, and plated in 96-well plates (Costar 3585) at 7500 cells/well in 100 μl standard maintenance medium (above) and incubated in the conditions above. […]
An NPTII ELISA kit was obtained from AGDIA, Inc. (Compound direct ELISA test system for Neomycin Phosphotransferase II, PSP 73000/4800). […] Plates were read at 450 nm on a Molecular Devices Versamax plate reader.
Inhibitor effect was expressed as a percentage of DMSO-treated control signal, and inhibition curves were calculated using a 4-parameter equation: y=A+((B−A)/(1+((C/x)^D))), where C is half-maximal activity or EC50.

For CC(C)[Si](O[C@@H]1C[C@H]2C(=O)N[C@]3(C(=O)NS(=O)(=O)C4CC4)C[C@H]3/C=C\CCCCC[C@H](NC(=O)OC(C)(C)C)C(=O)N2C1)(C(C)C)C(C)C, the IC50 (NS3-NS4A protease) was < 100 nM and the EC50 [1] was < 1000 nM.
